Results deposited as PubChem BioAssay AID504761 (Drosophila RNAi Screening Center, 2011).
The screen tested about 22,000 reagents; this is a random part of those that have a named target and a result. Of all reagents, 116 (0.52%) got an active call. 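Calls depend on retest data that are not deposited; infection was ranked per plate without normalising between plates; the unit of the infection score is not given.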 Raw values are not corrected between plates. A number with no mark means an inactive call. A plus sign joins genes that one reagent is predicted to hit. The record does not give: the amount of reagent, the time to read-out.

Aim: 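Fly genes whose silencing reduces dengue virus type 2 infection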 (primary screen)
Cell system: D.Mel-2 cells from Drosophila
Reagents: long dsRNA against Drosophila genes
Challenge: infection with dengue virus type 2; dose and infection time not stated
Read-out: 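Per well on two replicate plates, imaging gave the percent of cells positive for viral envelope protein, ranked by infection, and a nuclear count of cells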
Direction: infection score: higher = more virus-infected cells; cell count: higher = more cells in the well
Active means: 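Low infection ranks in the two replicates (chance level up to 0.065) followed by a retest with a 1.5-fold or larger significant decrease, p below 0.05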
Calls: active = confirmed: knock-down lowers infection; inactive = not picked or not confirmed

Target gene	amplicon	infection score, replicate 1	infection score, replicate 2	cell count, replicate 1	cell count, replicate 2
His3:CG33818 + His3:CG33857 + His3:CG33806 + 20 more	DRSC21267	3.68	0.67	1006	1051
BCL7-like (GeneID 31890)	DRSC17729	3.73	1.62	6857	6560
BCL7-like (GeneID 31890)	DRSC29657		19.2	387	5639
CG11417 (GeneID 31083)	DRSC18581	2.12	2.42	5699	6148
hry (GeneID 38995)	DRSC23249	1.14	5.11	6579	6856
hry (GeneID 38995)	DRSC30106	2.3	8.59	6525	5459
Vha16-3 (GeneID 317846)	DRSC10872	1.84	2.68	6291	6429
Vha16-3 (GeneID 317846)	DRSC25513	5.17	0.38	5162	6240
lark (GeneID 38811)	DRSC11362	2.02	2.69	4069	3752
lark (GeneID 38811)	DRSC25108	3.13	0.88	4252	4454
CG11131 (GeneID 40511)	DRSC11636	14.6	8.11	5928	6694
CG11131 (GeneID 40511)	DRSC21736	7.65	4.83	6278	6292
CG11131 (GeneID 40511)	DRSC28565	10	5.89	4437	2562
RpS2 (GeneID 34309)	DRSC03614	34.6	21	2276	2365
RpS2 (GeneID 34309)	DRSC26760	7.45	9.31	2174	2299
lncRNA:CR42862 + CG33229	DRSC08497	14	22.3	6343	4255
Rok (GeneID 43916)	DRSC20277	19.9	3.89	6646	6624
Rok (GeneID 43916)	DRSC23348	2.28	15.7	7491	6246
WRNexo (GeneID 42208)	DRSC16278	2.39	5.81	6279	6298
dos (GeneID 38321)	DRSC07992	2.07	1.32	4628	4544
dos (GeneID 38321)	DRSC08713	7.93	11.1	6354	5935
dos (GeneID 38321)	DRSC23285	5	32.8	5475	5307
eIF3b (GeneID 36981)	DRSC06900	11.7	18.8	2300	2189
ppk8 (GeneID 318213)	DRSC17269	1.7	3.98	6247	6610
CG30270 (GeneID 251324)	DRSC22890	1.4	2.55	5941	6462
cd (GeneID 42681)	DRSC16157	15.1	5.23	2934	6346
CG12716 (GeneID 32248)	DRSC19493	1.5	3.04	5719	6078
CG12716 (GeneID 32248)	DRSC28802	3.71	20	755	3713
Lsp1gamma (GeneID 38015)	DRSC08672	3.38	6.64	6479	6237
Lsp1gamma (GeneID 38015)	DRSC25710	5.25	6.96	5622	6053
CG32547 (GeneID 3346150)	DRSC19263	0.11	0.16	6302	6351
CG32547 (GeneID 3346150)	DRSC19474	5.96	6.2	6347	6161
mthl3 + mthl4	DRSC25990	5.34	4.45	6520	6557
l(3)76BDm (GeneID 40140)	DRSC11047	4.08	10.4	7079	5522
CG15024 (GeneID 50172)	DRSC08478	3.81	4.74	6068	5826
Pcyt1 (GeneID 117353)	DRSC08157	4.05	6.59	4296	2927
Pcyt1 (GeneID 117353)	DRSC27869	4.54	6.08	5709	5856
CG14647 (GeneID 40558)	DRSC12233	7.72	24.8	6631	5996
CG14647 (GeneID 40558)	DRSC22497	2.85	8.6	6095	6140
CG31997 (GeneID 319064)	DRSC17105	2.56	8.72	6246	6058
2mit (GeneID 41616)	DRSC14194	1.47	9.44	6989	6642
2mit (GeneID 41616)	DRSC15224	3.74	14.6	6741	6839
HUWE1 (GeneID 32510)	DRSC20089	19.5	7.48	3228	1831
Grasp65 (GeneID 40177)	DRSC10917	5.76	6.41	5794	5773
Grasp65 (GeneID 40177)	DRSC28969	2.8	6.21	5223	1337
Pur-alpha (GeneID 43797)	DRSC17166	4.28	3.42	6190	6958
Tollo (GeneID 44497)	DRSC11305	6.62	1.16	6435	6491
CG10011 (GeneID 43387)	DRSC14174	2.84	2.64	5633	6021
RpL11 (GeneID 37235)	DRSC07537	4.27	2.02	1358	791
RpL11 (GeneID 37235)	DRSC26217	7.32	9.88	1693	3734
Wdr33 (GeneID 40698)	DRSC12162	1.76	16.6	6406	6339
Wdr33 (GeneID 40698)	DRSC27065	3.18	2.8	5857	6211
Mec2 (GeneID 32905)	DRSC20054	2.23	5.43	6606	6701
Mec2 (GeneID 32905)	DRSC26162	8.38	7.68	5361	5856
CG16779 (GeneID 41134)	DRSC15153	1.69	18.3	7031	3877
Dyrk2 (GeneID 34831)	DRSC03610	4.18	11	6173	5741
Dyrk2 (GeneID 34831)	DRSC29029	11.6		4190	394
CSN3 (GeneID 40308)	DRSC11859	9.5	2.34	6442	6671
CSN3 (GeneID 40308)	DRSC25919	7.3	2.14	5531	5707

An excerpt from above, reduced to “cell count, replicate 1”:
Pcyt1 (GeneID 117353) [DRSC08157]	4296
Pcyt1 (GeneID 117353) [DRSC27869]	5709
CG14647 (GeneID 40558) [DRSC12233]	6631
CG14647 (GeneID 40558) [DRSC22497]	6095
CG31997 (GeneID 319064) [DRSC17105]	6246
2mit (GeneID 41616) [DRSC14194]	6989
